Molecular target: IL-2 receptor (IL-2R) on human CD4+/CD25high regulatory T cells (human) (UniProt P01589)
Assay: cell-based or functional assay

## denileukin diftitox (DAB389IL-2) (from UniProt P00588 33-418; P60568 21-153)
  7-AAD staining of CD4+ T-cell populations with increasing densities of CD25: 5 nM
